The chains behind the UniProt entries cited, without tags or fusion partners. Residues count along the entry.
UniProt P01552, 28-266 limits assumed: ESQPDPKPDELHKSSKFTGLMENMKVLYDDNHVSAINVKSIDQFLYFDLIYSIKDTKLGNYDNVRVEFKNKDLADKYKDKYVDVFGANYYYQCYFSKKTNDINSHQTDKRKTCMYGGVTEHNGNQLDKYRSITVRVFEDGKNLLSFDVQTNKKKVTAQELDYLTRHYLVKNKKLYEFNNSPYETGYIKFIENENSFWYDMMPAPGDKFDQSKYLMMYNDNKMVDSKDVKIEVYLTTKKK

According to patent publication US8691290B2 (priority 2006, dated 2014):

Biological target: Staphylococcus aureus enterotoxin B (SEB) (Staphylococcus aureus, UniProt P01552)
Test: Cytokine synthesis by PBL after I2-treated SEB (ELISA of IL-6 and IFN-γ)
Assay type: cell-based
Conditions: SEB treated with I2, PBL

SMILES: II
- I2 concentration that inhibits superantigen activation of T-cell cytokine synthesis: > 25 ppm
